From PubChem BioAssay AID540333 (Southern Research Specialized Biocontainment Screening …, 2011) come the findings set out here.

The list shows a part of the results, in another mix than the full data. Activity calls are given as the source filed them. Rule as the data show it: active = CPE inhibition mostly above about 9.1% (no sharp cut-off); inactive = mostly below about 7.2%.

The nature of this assay: Dengue virus cytopathic effect inhibitors, cell-based, CPE readout, HTS (AID 540333). Conditions: Dengue virus CPE inhibition in host cells; at 20 µM; hits give high values.
As for `CC(=O)NC(SC(=S)N(C)C)C(Cl)(Cl)Cl` (centres undefined), the CPE inhibition was inactive: 0%.

With `CC(=O)NC(SC(=S)N(CC(C)C)CC(C)C)C(Cl)(Cl)Cl` (centres undefined), the CPE inhibition is inactive: 3.89%.

Regarding `Cc1cc(SC(NC(=O)c2ccccc2)C(Cl)(Cl)Cl)nc(C(C)C)n1` (centres undefined), the CPE inhibition is inactive: 0%.

Regarding `Cc1ccc(NCCc2c([N+](=O)[O-])cc([N+](=O)[O-])cc2[N+](=O)[O-])cc1`, the CPE inhibition is inactive: 6.13%.
